Data on three compounds can be found in article doi:10.1101/2023.09.11.557219v1 (biorxiv, 2023).

The experiment deals with SARS-CoV-2 M^pro (main protease, 3CL^pro, NSP5) (Severe acute respiratory syndrome coronavirus 2, UniProt P0DTD1). Kind of experiment: fluorogenic substrate cleavage, Morrison fit. Particulars: HEPES 25 mM pH 7.0, fluorogenic substrate SAE0180. The format is biochemical.

As for `CN(CCCNC(=O)N1c2ccccc2Sc2ccccc21)c1ccccc1`, under “competitive”, the Ki came out at 10 µM.
In the case of `O=C(NC1C2CC3CC(C2)CC1C3)N1c2ccccc2Sc2ccccc21` (stereo not drawn), the Ki was determined as 51 µM.
For the compound `O=C(NC12CC3CC(CC(C3)C1)C2)N1c2ccccc2Sc2ccccc21`, the Ki came out at 64 µM.

The Ki is the equilibrium dissociation constant of an inhibitor or competing ligand from its target. Read a high Ki as a looser hold on the target.
